Results of unrelated studies side by side (data: NIAID ChemDB).

All rows: tests in culture; species: Candida albicans

Blank or dashed fields: not listed here. Neighbouring rows are from separate reports. MIC50, MIC90 and the like: level of inhibition, or share of isolates inhibited.

| structure | method | strain | endpoint | result |
|---|---|---|---|---|
| CCCCCOc1ccc(-c2ccc(-c3ccc(C(=O)N[C@H]4CCCNC(=O)C5CNCN5C(=O)C(C(C)O)NC(=O)C(CCc5ccc(O)cc5)NC(=O)C5C[C@@H](O)CN5C(=O)C(C(C)O)NC4=O)cc3)cc2)cc1 |  | ATCC 10231 | MIC | 1.56 µg/mL |
| Fc1cccc(C(c2nccc3ccccc23)n2ccnc2)c1.O=[N+]([O-])O |  | 44 strains | MIC90 | 256 µg/mL |
| N=C(N)c1ccc2nc(-c3ccc(-c4nc5ccc(C(=N)N)cc5[nH]4)[nH]3)[nH]c2c1 |  | 21 strains | Geometric mean MIC | 0.64 µg/mL |
| CCCCCCCCOc1ccc(N2CCN(c3ccc(C(=O)N[C@H]4CCCNC(=O)C5C[C@H](N)CN5C(=O)C(C(C)O)NC(=O)C(Cc5ccc(N)cc5)NC(=O)C5CCCN5C(=O)C(C(C)O)NC4=O)cc3)CC2)cc1 |  | ATCC 62376 | MIC | 0.2 µg/mL |
| Cc1c(Sc2ccccc2)[n+](=O)c2cc(Cl)ccc2n1[O-] |  | Clinical isolate 18 | MIC | 31.25 µg/mL |
| C[C@H]1[C@H](O)[C@@H](C)/C=C/C=C/C=C/C=C/C=C/C=C/C=C/[C@H](O[C@@H]2O[C@H](C)[C@@H](O)[C@H](N)[C@@H]2O)C[C@@H]2O[C@](O)(C[C@@H](O)C[C@@H](O)CC[C@H](O)[C@@H](O)C[C@@H](O)CC(=O)O[C@H]1C)C[C@H](O)[C@H]2C(=O)O |  | 12 isolates | MFC90 | 1 µg/mL |
| O=[N+]([O-])O.c1ccc(-c2ccc(C(c3nccc4ccccc34)n3ccnc3)cc2)cc1 |  | 44 strains | MIC90 | 256 µg/mL |
| CCCCCOc1ccc(-c2ccc(-c3ccc(C(=O)N[C@H]4CCCNC(=O)C5C[C@H](NCCN)CN5C(=O)C(C(C)O)NC(=O)C(CCc5ccc(O)cc5)NC(=O)C5C[C@@H](O)CN5C(=O)C(C(C)O)NC4=O)cc3)cc2)cc1 |  | ATCC CCH442 | MIC | 0.39 µg/mL |
| Fc1ccc(COc2ccc(C(c3nccc4ccccc34)n3ccnc3)cc2)cc1 |  | 16 strains | Mean MIC | ≥256 µg/mL |
| O=[n+]1c(Sc2ccccc2)c(CBr)n([O-])c2ccccc21 |  | Clinical isolate 14 | MIC | 15.6 µg/mL |
| Cc1c(O)cccc1C(=O)N[C@@H](CSc1ccccc1)[C@H](O)CN1C[C@H]2CCCC[C@H]2C[C@H]1C(=O)NC(C)(C)C |  | I78A | MIC | >64 µg/mL |
| CCCCCOc1ccc(-c2ccc(-c3ccc(C(=O)N[C@H]4CCCNC(=O)C5C[C@H](N)CN5C(=O)C(C)NC(=O)C(CCc5ccc(O)cc5)NC(=O)C5C[C@@H](O)CN5C(=O)C(C(C)O)NC4=O)cc3)cc2)cc1 |  | ATCC 10231 | MIC | 0.2 µg/mL |
| CCOc1cc2c(cc1F)n([O-])c(C)c(S(=O)(=O)c1ccccc1)[n+]2=O |  | Clinical isolate 16 | MIC | 15.6 µg/mL |
| C=CCc1ccc(OC)c(OC)c1 | turbidity | 2780 | MIC90 | 345 µg/mL |
| Clc1ccc(COc2ccc(C(c3cccc4ccccc34)n3ccnc3)cc2)c(Cl)c1.O=[N+]([O-])O |  | 17 strains | MIC90 | ≥256 µg/mL |
| CCCCCOc1ccc(-c2ccc(-c3ccc(C(=O)N[C@H]4CCCNC(=O)C5C[C@H](NS(C)(=O)=O)CN5C(=O)C(C(C)O)NC(=O)C(CCc5ccc(O)cc5)NC(=O)C5C[C@@H](O)CN5C(=O)C(C(C)O)NC4=O)cc3)cc2)cc1 |  | ATCC 10231 | MIC | 0.2 µg/mL |
| CN(CCCC#CC(C)(C)C)c1cccc2c1CCC(=O)N2 |  | Clinical isolate 24 | MIC | 31.25 µg/mL |
| Fc1ccc(COc2ccc(C(c3ccc(-c4ccccc4)cc3)n3ccnc3)cc2)c(F)c1.O=[N+]([O-])O |  | 16 strains | MIC90 | ≥256 µg/mL |

A second listing of 2 rows from above:

structure | method | strain | endpoint | result
CCCCCOc1ccc(-c2ccc(-c3ccc(C(=O)N[C@H]4CCCNC(=O)C5CNCN5C(=O)C(C(C)O)NC(=O)C(CCc5ccc(O)cc5)NC(=O)C5C[C@@H](O)CN5C(=O)C(C(C)O)NC4=O)cc3)cc2)cc1 |  | ATCC 10231 | MIC | 1.56 µg/mL
CCOc1cc2c(cc1F)n([O-])c(C)c(S(=O)(=O)c1ccccc1)[n+]2=O |  | Clinical isolate 16 | MIC | 15.6 µg/mL